Test results published in ChEMBL document CHEMBL5113496, “A systematic exploration of boceprevir-based main protease inhibitors as SARS-CoV-2 antivirals” (Eur J Med Chem, 2022).

How the values were obtained:
Assay type in all cases: toxicity, cell-based
Conditions in all cases: read-out: Ratio CC50/EC50
[1] = Selectivity index, ratio of CC50 for cytotoxicity against HEK293T/`17 cells assessed as inhibition of cell growth to EC50 for antiviral activity against SARS-CoV2 USA-WA1/2020 infected in African green monkey Vero E6 cells assessed as reduction in viral plaques
[2] = Selectivity index, ratio of CC50 for cytotoxicity against HEK293T/`17 cells assessed as inhibition of cell growth to EC50 for antiviral activity against SARS-CoV2 Beta infected in African green monkey Vero E6 cells assessed as reduction in viral plaques
[3] = Selectivity index, ratio of CC50 for cytotoxicity against HEK293T/`17 cells assessed as inhibition of cell growth to EC50 for antiviral activity against SARS-CoV2 Delta infected in African green monkey Vero E6 cells assessed as reduction in viral plaques

Measured: selectivity ratio

C[C@@H](OC(C)(C)C)[C@H](NC(=O)OCc1ccccc1)C(=O)N1C[C@H]2[C@@H]([C@H]1C(=O)N[C@H](C=O)C[C@@H]1CCNC1=O)C2(C)C
56: all assays above

CC(C)(C)[C@H](NC(=O)OCc1ccccc1)C(=O)N1C[C@H]2[C@@H]([C@H]1C(=O)N[C@H](C=O)C[C@@H]1CCNC1=O)C2(C)C
56: all assays above
